PubChem BioAssay AID1259414, Drosophila RNAi Screening Center – 2018

Aim: 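Fly genes that alter Wolbachia amount inside host cells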 (primary screen)
System: Drosophila JW18 cells infected with Wolbachia
Reagent: long dsRNA against Drosophila genes, 0.25 µg dsRNA per well of a 384-well plate
Timing: 5 days
Conditions: cells persistently infected with Wolbachia before knock-down; no added drug
Read-out: 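Automated imaging of bacterial rRNA staining divided by host cell count, reported as plate-normalised robust z-score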
Scale: Wolbachia per cell robust z: higher = more Wolbachia per host cell than the plate typical
Hit rule: 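Active if absolute robust z reaches 1.5 in two or more of three replicates, leaving out multi- or no-target dsRNAs, genes unexpressed in JW18 and A1 wells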
The deposit covers about 24,000 reagents; shown is an unselected part of those that have a named target and a result. In the full data, about 1,210 (5%) were called active. 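Inactive calls also include excluded dsRNAs with several or no targets, genes unexpressed in JW18, and well A1, regardless of score.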 Unmarked entries are inactive. Names joined by + are all predicted targets of the reagent. No sequences are given here.

Wolbachia per cell robust z, rep 1	Wolbachia per cell robust z, rep 2	Wolbachia per cell robust z, rep 3	gene	dsRNA
0.736	0.508	-0.0812	Cda9 (Chitin deacetylase-like 9)	DRSC06593
0.348	0.0183	1.57	CG12069	DRSC14470
0.654	-0.21	0.672	CG12069	DRSC26204
-1.58	-0.517	-0.312	CG12069	DRSC41624
0.911	0.319	-0.492	Plzf (Promyelocytic leukemia zinc finger)	DRSC02994
-2.02	-0.812	-1.1	tub (tube)	DRSC12389
0.342	-0.0985	0.531	tub (tube)	DRSC22800
0.828	-0.355	0.125	CG2887	DRSC18235
1.2	0.701	0.602	CG2887	DRSC24167
-0.0194	-3.22	1.07	Spindly	DRSC00430
-1.11	-0.185	0.412	CG2224	DRSC15429
0.487	-0.855	-0.558	CG2224	DRSC24269
-1.34	0.673	-0.214	MetRS (Methionyl-tRNA synthetase)	DRSC22533
-1.07	-1.16	-1.05	Sec20 (Secretory 20)	DRSC12295
0.578	1.25	0.396	Sec20 (Secretory 20)	DRSC29886
0.496	-0.00335	-0.0705	CG5267	DRSC06928
-0.221	0.487	-4.93	CG13793	DRSC02297
1.44	-0.0502	0.945	CG13793	DRSC28252
-0.801	-1.89	-0.799	CG34342	DRSC09756
0.151	-1.2	-0.0529	CG34342	DRSC22515
0.33	-0.568	-1.25	CG34342	DRSC24023
-0.75	-1.23	0.432	Hmx (H6-like-homeobox)	DRSC15307
-1.46	-3.44	-1.84	Hmx (H6-like-homeobox)	DRSC24958
-1.64	-0.666	-0.326	Hmx (H6-like-homeobox)	DRSC25028
-1.87	-0.152	1.18	CG12828	DRSC06177
0.296	-0.00739	0.718	hmw (hemingway)	DRSC16277
-0.462	0.507	-1.04	CG8314	DRSC07144
-1.23	-1	-1.48	brwl (brickwall)	DRSC01080
0.692	0.538	0.303	brwl (brickwall)	DRSC24965
0.871	-0.56	-2.45	kri (krishah)	DRSC10515
0.255	-3.54	-0.341	Anp (Andropin)	DRSC14112
0.843	1.44	0.826	mRpL39 (mitochondrial ribosomal protein L39)	DRSC10255
-1.66 (active)	-1.54	-0.98	rno (rhinoceros)	DRSC08584
-0.255	-2.93	0.548	sordd1 + sordd2	DRSC20136
-1.44	0.609	-0.402	sordd1 + sordd2	DRSC28444
-0.753	-0.602	-0.934	CG14866	DRSC14989
0.0886	0.107	1.13	CG10700	DRSC02096
-1.77	-0.0249	-0.439	CG34171	DRSC38909
0.103	0.698	0.678	CG10132	DRSC02013
-0.897	0.0572	0.186	CG10132	DRSC27890
0.68	1.02	0.697	CG10132	DRSC41589
-1.28	-2.52	-1.48	ear (ENL/AF9-related)	DRSC15675
-2.41 (active)	-4.28	-2.72	ear (ENL/AF9-related)	DRSC24291
0.253	-1.25	0.406	SPR (Sex peptide receptor)	DRSC17886
0.215	0.307	0.444	SPR (Sex peptide receptor)	DRSC18114
-0.0447	-0.106	-0.442	SPR (Sex peptide receptor)	DRSC21557
-0.123	0.0843	-1.1	l(3)psg2 (lethal (3) persistent salivary gland 2)	DRSC10484
-1.71 (active)	-1.77	0.0373	l(3)psg2 (lethal (3) persistent salivary gland 2)	DRSC24075
0.471	-1.2	0.367	CG7914	DRSC20068
0.666	0.268	0.844	CG7914	DRSC28931
-0.836	-2.04	-0.206	Galphaf (G protein alpha subunit f)	DRSC11171
-1.53	-0.017	0.69	Pgant5 (Polypeptide N-Acetylgalactosaminyltransferase 5)	DRSC03149
0.588	-0.722	0.376	CG33459	DRSC05615
0.292	0.264	0.384	Lrrk (Leucine-rich repeat kinase)	DRSC15816
1.17	0.788	1.08	Lrrk (Leucine-rich repeat kinase)	DRSC21971
0.133	0.145	-0.953	Lrrk (Leucine-rich repeat kinase)	DRSC26140
0.159	-0.121	-0.588	CG11594	DRSC08207
-1.96	0.471	1.06	Polr3D (RNA polymerase III subunit D)	DRSC10485
1.63	0.973	1.49	Polr3D (RNA polymerase III subunit D)	DRSC29157
1.86 (active)	1.99	0.389	CG42404	DRSC15558
0.533	-6.01	0.307	ND-49 (NADH dehydrogenase (ubiquinone) 49 kDa subunit)	DRSC17151
0.427	0.238	-4.88	CG18808	DRSC08539
-2.29	-4.73	-8.78	CG13045	DRSC09926
-2.15	-0.21	-1.41	CG13045	DRSC25454
-1.54	0.607	0.776	CG2336	DRSC12581
-0.666	-0.488	-1.51	Tmem18 + DUBAI	DRSC05344
-0.0575	-1.01	0.386	CG42810	DRSC02533
0.253	0.738	0.283	Alg2 (ALG2, alpha-1,3/1,6-mannosyltransferase)	DRSC08298

Entries above marked active:
Wolbachia per cell robust z, rep 1	Wolbachia per cell robust z, rep 2	Wolbachia per cell robust z, rep 3	gene	dsRNA
-1.66 (active)	-1.54	-0.98	rno (rhinoceros)	DRSC08584
-2.41 (active)	-4.28	-2.72	ear (ENL/AF9-related)	DRSC24291
-1.71 (active)	-1.77	0.0373	l(3)psg2 (lethal (3) persistent salivary gland 2)	DRSC24075
1.86 (active)	1.99	0.389	CG42404	DRSC15558
